Compound potency records, mixed from different reports. Data source: NIAID ChemDB in PubChem.

Shared fields: tests in culture

Percent inhibition refers to the dose given; in toxicity tests it is the harm to the cells. Conditions beyond the fields shown may differ between rows. An empty or dashed field is not shown.

SMILES	species	method	strain	tested at	measure	setting	value
CC[C@H]1OC(=O)[C@H](C)[C@@H](O[C@H]2C[C@@](C)(OC)[C@@H](OC(C)=O)[C@H](C)O2)[C@H](C)[C@@H](O[C@@H]2O[C@H](C)C[C@H](N(C)C)[C@H]2OC(=O)NNCCCCCc2ccccc2)C(C)(O)C[C@@H](C)/C(=N\OCCCC2CCCCC2)[C@H](C)[C@@H](O)[C@]1(C)O	Mycobacterium avium complex		20096 (clarithromycin-resistant)		MIC		3.13 µg/mL
CCCCCCCCCCCCCCCCCCC(=O)NC(C)(CCC(=O)O)CCC(=O)O	Mycobacterium abscessus		AAy-P-1		MIC		4.5 µg/mL
CO[C@H]1/C=C/O[C@@]2(C)Oc3c(C)c(O)c4c(O)c(c(/C=N/N5CCN(C6CCCC6)CC5)c(O)c4c3C2=O)NC(=O)/C(C)=C\C=C\[C@H](C)[C@H](O)[C@@H](C)[C@@H](O)[C@@H](C)[C@H](OC(C)=O)[C@@H]1C	Mycobacterium avium intracellulare		998		MIC		0.062 µg/mL
CCCCCCCCCCC(CCCCCCCCCC)OC(=O)NC(CCC(=O)O)(CCC(=O)O)CCC(=O)O	Mycobacterium marinum		ATCC 927		MIC		108 µg/mL
CC[C@H]1OC(=O)[C@H](C)[C@@H](O[C@H]2C[C@@](C)(OC)[C@@H](OC(C)=O)[C@H](C)O2)[C@H](C)[C@@H](O[C@@H]2O[C@H](C)C[C@H](N(C)C)[C@H]2OC(=O)NNCc2ccc([N+](=O)[O-])cc2)C(C)(O)C[C@@H](C)/C(=N\OCCCC2CCCCC2)[C@H](C)[C@@H](O)[C@]1(C)O	Mycobacterium avium complex		20096 (clarithromycin-resistant)		MIC		3.13 µg/mL
CCc1nc2ccc(Cl)cn2c1C(=O)NCc1cc(F)c(N2CCN(c3ccc(OC(F)(F)F)cc3)[C@@H](C)C2)c(F)c1.Cl	Mycobacterium avium	fluorescence		0.0055 µM	inhibition		85%
Nc1ccc(S(=O)(=O)c2ccc(N)cc2)cc1	Mycobacterium avium complex		DW9		MIC		64 µg/mL
CCc1nc2ccc(Cl)cn2c1C(=O)NCc1ccc(-n2cc3c(n2)CN(c2ccc(OC(F)(F)F)cc2)C3)c(F)c1.Cl	Mycobacterium avium	fluorescence		0.0051 µM	inhibition		85%
O=c1oc2ccc(F)cc2c(=S)n1-c1cccc(Cl)c1	Mycobacterium kansasii		6509/96		MIC	21 d	1 µM
CCCCCCCCCCCCCCCCOC(=O)NC(C)(CCC(=O)O)CCC(=O)O	Mycobacterium chelonae		EO-P-1		MIC		54 µg/mL
Fc1ccc2oc(=S)n(-c3ccc(Cl)c(Cl)c3)c(=S)c2c1	Mycobacterium kansasii		6509/96		MIC	14 d	1 µM
CCCCCCCCCCCCCCCCCCCCC(=O)NC(C)(CCC(=O)O)CCC(=O)O	Mycobacterium chelonae		EO-P-1		MIC		14 µg/mL
Cc1ccc2oc(=S)n(-c3ccc(F)cc3)c(=S)c2c1	Mycobacterium kansasii		My 235/80		MIC	14 d	8 µM
CCCCCCCCCCCCC(CCCCCCCCCCCC)NC(=O)NC(CCC(=O)O)(CCC(=O)O)CCC(=O)O	Mycobacterium smegmatis		mc155		MIC		72 µg/mL
Cc1ccn2c(C(=O)NCc3ccc(C4CCN(c5ccc(OC(F)(F)F)cc5)CC4)c(F)c3)c(C)nc2c1	Mycobacterium avium	fluorescence		0.017 µM	inhibition		85%
CC[C@H]1OC(=O)[C@H](C)[C@@H](OC(=O)CCCc2ccccc2)[C@H](C)[C@@H](O[C@@H]2O[C@H](C)C[C@H](N(C)C)[C@H]2O)C(C)(O)C[C@@H](C)/C(=N\OCCCOc2ccccc2)[C@H](C)[C@@H](O)[C@]1(C)O	Mycobacterium avium complex		20096 (clarithromycin-resistant)		MIC		12.5 µg/mL
CCc1nc2ccc(Cl)cn2c1C(=O)NCc1cc(F)c(N2CCC(c3ccc(OC(F)(F)F)cc3)CC2)c(F)c1.Cl	Mycobacterium avium	fluorescence		0.011 µM	inhibition		85%
FC(F)(F)c1ccc(-n2c(=S)oc3ccc(Br)cc3c2=S)cc1	Mycobacterium kansasii		6509/96		MIC	21 d	32 µM
Cc1nc2cc(F)ccn2c1C(=O)NCc1ccc(N2CCN(c3ccc(OC(F)(F)F)cc3)[C@@H](C)C2)c(F)c1	Mycobacterium avium	fluorescence		0.0026 µM	inhibition		85%
Cc1ccc2oc(=O)n(-c3ccc(Cl)c(Cl)c3)c(=S)c2c1	Mycobacterium kansasii		6509/96		MIC	21 d	8 µM
CCCCCCCCC(CCCCCCCC)OC(=O)NC(CCC(=O)O)(CCC(=O)O)CCC(=O)O	Mycobacterium abscessus		AAy-P-1		MIC		216 µg/mL
CC1(C)N=C(N)N=C(N)N1OCCCOc1cc(Cl)c(Cl)cc1Cl	Mycobacterium avium complex		ATCC35801		MIC		2 µg/mL
Fc1ccc(-n2c(=S)oc3ccc(Cl)cc3c2=S)cc1	Mycobacterium kansasii		My 235/80		MIC	14 d	8 µM

The first 2 rows once more:

SMILES | species | method | strain | tested at | measure | setting | value
CC[C@H]1OC(=O)[C@H](C)[C@@H](O[C@H]2C[C@@](C)(OC)[C@@H](OC(C)=O)[C@H](C)O2)[C@H](C)[C@@H](O[C@@H]2O[C@H](C)C[C@H](N(C)C)[C@H]2OC(=O)NNCCCCCc2ccccc2)C(C)(O)C[C@@H](C)/C(=N\OCCCC2CCCCC2)[C@H](C)[C@@H](O)[C@]1(C)O | Mycobacterium avium complex |  | 20096 (clarithromycin-resistant) |  | MIC |  | 3.13 µg/mL
CCCCCCCCCCCCCCCCCCC(=O)NC(C)(CCC(=O)O)CCC(=O)O | Mycobacterium abscessus |  | AAy-P-1 |  | MIC |  | 4.5 µg/mL